Compound potency records, mixed from different reports. Data source: NIAID ChemDB in PubChem.

All rows: tests in culture

Neighbouring rows are from separate reports.

compound,species,strain,mutations,cells,read by,endpoint,result
CC[C@H]1OC(=O)[C@H](C)[C@@H](OC2C[C@@](C)(OC)[C@@H](O)[C@H](C)O2)[C@H](C)[C@@H](O[C@@H]2O[C@H](C)C[C@H](N(C)C)[C@H]2O)C(C)(O)C[C@@H](C)/C(=N\OCCCCOc2ccccc2)[C@H](C)[C@@H](O)[C@]1(C)O,Mycobacterium avium complex,20092 (clarithromycin-resistant),,,,MIC,12.5 µg/mL
CCOC(=O)c1cnc(NCCCCNc2ccnc3cc(Cl)ccc23)nc1C,Cryptococcus gattii,196L/03,,,,MIC99,8 µg/mL
O=C(N[C@@H](C(=O)N1CCC[C@H]1c1ncc(-c2ccc(-c3ccc(-c4cnc([C@@H]5CCCN5C(=O)[C@H](NC(=O)C5CC5)c5ccccc5)s4)cc3)cc2)s1)c1ccccc1)C1CC1,Hepatitis C virus,genotype 2a,T24A,Huh7.5,luciferase / reporter gene,fold resistance,65
Oc1ccc(O)c(C=Nc2ccccc2O)c1,Cryptococcus gattii,L 27/01,,,,MIC99,11.3 µg/mL
CC[C@H]1OC(=O)[C@H](C)[C@@H](O[C@H]2C[C@@](C)(OC)[C@@H](O)[C@H](C)O2)[C@H](C)[C@@H](O[C@@H]2O[C@H](C)C[C@H](N(C)C)[C@H]2O)[C@](C)(O)C[C@@H](C)/C(=N\OCOCCOC)[C@H](C)[C@@H](O)[C@]1(C)O,Streptococcus pneumoniae,595 strains,,,,MIC90,≥64 µg/mL
C=CCc1ccc(OC)c(OC)c1,Candida glabrata,ATCC 90030,,,turbidity,MIC90,345 µg/mL
O=C1Nc2ccc(F)c(F)c2[C@@](C#CC2CC2)(C(F)(F)F)N1,HIV-1,,,,,EC90,0.0009 µM
CC[C@H]1OC(=O)[C@H](C)[C@@H](OC(=O)CCCCCc2ccccc2)[C@H](C)[C@@H](O[C@@H]2O[C@H](C)C[C@H](N(C)C)[C@H]2O)C(C)(O)C[C@@H](C)/C(=N\OCCCOc2ccccc2)[C@H](C)[C@@H](O)[C@]1(C)O,Mycobacterium avium complex,20039 (clarithromycin-susceptible),,,,MIC,6.25 µg/mL
Cc1cc(S(N)(=O)=O)ccc1NC(=O)COc1ccc(Cl)cc1C(=O)c1cccc(C#N)c1,HIV-1,HXB2,RT-Y181C,HeLa + HELA CD4+,β-galactosidase,fold resistance,~1
CC[C@H]1OC(=O)[C@H](C)[C@@H](O[C@H]2C[C@@](C)(OC)[C@@H](OC(C)=O)[C@H](C)O2)[C@H](C)[C@@H](O[C@@H]2O[C@H](C)C[C@H](N(C)C)[C@H]2OC(=O)NN2CCCC2)C(C)(O)C[C@@H](C)/C(=N\OCCCC2CCCCC2)[C@H](C)[C@@H](O)[C@]1(C)O,Mycobacterium avium complex,20039 (clarithromycin-susceptible),,,,MIC,3.13 µg/mL
CCCc1cc(=O)oc2cc(OC(=O)CC)cc(O)c12,Measles virus,Chicago-1,,CV-1,virus yield,EC90,40 µg/mL
CC[C@H]1OC(=O)[C@H](C)[C@@H](O[C@H]2C[C@@](C)(OC)[C@@H](OC(C)=O)[C@H](C)O2)[C@H](C)[C@@H](O[C@@H]2O[C@H](C)C[C@H](N(C)C)[C@H]2OC(=O)NNCc2cccnc2)C(C)(O)C[C@@H](C)/C(=N\OCCCC2CCCCC2)[C@H](C)[C@@H](O)[C@]1(C)O,Mycobacterium avium complex,20096 (clarithromycin-resistant),,,,MIC,1.56 µg/mL
CO/N=C(/C(=O)N[C@@H]1C(=O)N2C(C(=O)O)=C(COC(N)=O)CS[C@H]12)c1ccco1,Streptococcus pneumoniae,595 strains,,,,MIC90,0.5 µg/mL
Nc1nc2c(ccn2[C@@H]2C[C@H](CO)[C@@H](O)[C@H]2O)c(=O)[nH]1,Sindbis virus,,,,,MIC,>100 µg/mL
CCCc1cc(=O)oc2cc(OC(=O)C(C)(C)C)c3c(c12)OC(C)(C)C=C3,Measles virus,MO2,,CV-1,cytopathic effect,EC50,1 µg/mL
CO/N=C1\CN(c2nc3c(cc2F)c(=O)c(C(=O)O)cn3C2CC2)CC1CN,Streptococcus pneumoniae,19 isolates (penicillin-resistant),,,,MIC90,0.063 µg/mL
Oc1ccccc1N=Cc1ccc2c(c1)OCO2,Cryptococcus neoformans,27JF,,,,MIC99,11.3 µg/mL
CCCc1cc(=O)oc2c3c(c4c(c12)OC(C)(C)[C@H](O)[C@@H]4O)O[C@H](C)[C@@H](C)[C@@H]3O,Measles virus,NS2,,CV-1,cytopathic effect,EC50,0.5 µg/mL
Cc1nc(NCCCCNc2ccnc3cc(Cl)ccc23)nc(-c2ccccc2[N+](=O)[O-])c1C(=O)OC(C)C,Cryptococcus neoformans,F-10,,,,MIC99,4 µg/mL
CC[C@H]1OC(=O)[C@H](C)[C@@H](O[C@H]2C[C@@](C)(OC)[C@@H](OC(C)=O)[C@H](C)O2)[C@H](C)[C@@H](O[C@@H]2O[C@H](C)C[C@H](N(C)C)[C@H]2OC(=O)NNCc2ccncc2)C(C)(O)C[C@@H](C)/C(=N\OCCCC2CCCCC2)[C@H](C)[C@@H](O)[C@]1(C)O,Mycobacterium avium complex,20039 (clarithromycin-susceptible),,,,MIC,0.78 µg/mL
Cc1cc(S(N)(=O)=O)ccc1NC(=O)COc1ccc(Cl)cc1C(=O)c1cc(F)cc(C#N)c1,HIV-1,HXB2,RT-V108I Y181C,HeLa + HELA CD4+,β-galactosidase,fold resistance,~1
CCCCCCCCCCCCCCNNC(=O)O[C@H]1[C@H](O[C@@H]2[C@@H](C)[C@H](O[C@H]3C[C@@](C)(OC)[C@@H](OC(C)=O)[C@H](C)O3)[C@@H](C)C(=O)O[C@H](CC)[C@@](C)(O)[C@H](O)[C@@H](C)/C(=N/OCCCC3CCCCC3)[C@H](C)CC2(C)O)O[C@H](C)C[C@@H]1N(C)C,Mycobacterium avium complex,20039 (clarithromycin-susceptible),,,,MIC,>50 µg/mL
CCOC(=O)c1c(C)nc(OCCCNc2ccnc3cc(Cl)ccc23)nc1-c1ccccc1,Cryptococcus neoformans,WP,,,,MIC99,5.7 µg/mL
CC[C@H]1OC(=O)[C@H](C)[C@@H](O[C@H]2C[C@@](C)(OC)[C@@H](OC(C)=O)[C@H](C)O2)[C@H](C)[C@@H](O[C@@H]2O[C@H](C)C[C@H](N(C)C)[C@H]2OC(=O)NNCc2cccc([N+](=O)[O-])c2)C(C)(O)C[C@@H](C)/C(=N\OCCCC2CCCCC2)[C@H](C)[C@@H](O)[C@]1(C)O,Mycobacterium avium complex,20092 (clarithromycin-resistant),,,,MIC,0.78 µg/mL
C[C@@H](c1ncncc1F)[C@](O)(Cn1cncn1)c1ccc(F)cc1F,Cryptococcus gattii,,,,broth dilution,MIC90,0.125 µg/mL
CC[C@H]1OC(=O)[C@H](C)C(=O)[C@H](C)[C@@H](O[C@@H]2O[C@H](C)C[C@H](N(C)C)[C@H]2O)[C@](C)(OC)C[C@@H](C)C(=O)[C@H](C)[C@H]2N(CCCCn3cnc(-c4cccnc4)c3)C(=O)O[C@]12C,Streptococcus pneumoniae,595 strains,,,,MIC90,≤0.06 µg/mL
Cc1cc(C)cc(C(=O)c2cc(Cl)ccc2OCC(=O)Nc2ccc(S(N)(=O)=O)cc2C)c1,HIV-1,HXB2,RT-K103N P225H,HeLa + HELA CD4+,β-galactosidase,fold resistance,~1
O=C1Nc2ccc(Cl)cc2[C@@](/C=C/C2CC2)(C(F)(F)F)N1,HIV-1,,RT-K103N,,,EC90,0.027 µM
Cc1cc(C#N)cc(C(=O)c2cc(Cl)ccc2OCC(=O)Nc2ccc(S(N)(=O)=O)nc2C)c1,HIV-1,HXB2,RT-G190A,HeLa + HELA CD4+,β-galactosidase,fold resistance,~1
CCCc1cc(=O)oc2cc(OS(=O)(=O)c3ccc(C)cc3)cc(O)c12,Measles virus,Edmonston,,CV-1,cytopathic effect,EC50,0.4 µg/mL
CS(=O)(=O)Nc1ccc(NC(=O)COc2ccc(Cl)cc2C(=O)c2ccccc2)cc1,HIV-1,HXB2,RT-Y181C,HeLa + HELA CD4+,β-galactosidase,fold resistance,~10
CCCCCCC(=O)O[C@H]1[C@H](C)[C@@H](O[C@@H]2O[C@H](C)C[C@H](N(C)C)[C@H]2O)C(C)(O)C[C@@H](C)/C(=N\OCCCOc2ccccc2)[C@H](C)[C@@H](O)[C@](C)(O)[C@@H](CC)OC(=O)[C@@H]1C,Mycobacterium avium complex,20092 (clarithromycin-resistant),,,,MIC,3.13 µg/mL
CCOC(=O)c1c(C)nc(NCCCNc2ccnc3cc(Cl)ccc23)nc1-c1ccccc1,Cryptococcus neoformans,96806,,,,MIC99,45.3 µg/mL
Cc1cc(S(N)(=O)=O)ccc1NC(=O)COc1ccc(Cl)cc1C(=O)c1cc(F)cc(F)c1,HIV-1,HXB2,RT-Y188C,HeLa + HELA CD4+,β-galactosidase,fold resistance,~1

A second listing of 4 rows from above:

compound,species,strain,mutations,cells,read by,endpoint,result
CO/N=C1\CN(c2nc3c(cc2F)c(=O)c(C(=O)O)cn3C2CC2)CC1CN,Streptococcus pneumoniae,19 isolates (penicillin-resistant),,,,MIC90,0.063 µg/mL
C[C@@H](c1ncncc1F)[C@](O)(Cn1cncn1)c1ccc(F)cc1F,Cryptococcus gattii,,,,broth dilution,MIC90,0.125 µg/mL
CCCc1cc(=O)oc2c3c(c4c(c12)OC(C)(C)[C@H](O)[C@@H]4O)O[C@H](C)[C@@H](C)[C@@H]3O,Measles virus,NS2,,CV-1,cytopathic effect,EC50,0.5 µg/mL
CO/N=C(/C(=O)N[C@@H]1C(=O)N2C(C(=O)O)=C(COC(N)=O)CS[C@H]12)c1ccco1,Streptococcus pneumoniae,595 strains,,,,MIC90,0.5 µg/mL

ECn: concentration that inhibits the pathogen or its effect by n%. A number after MIC or MFC names an inhibition level or a share of isolates. An empty or dashed field is not shown. Fold resistance has wild type as its base.